Measured values from several laboratories, pooled; numbers as filed in NIAID ChemDB.

Shared fields: whole-cell or culture tests; species: Mycobacterium tuberculosis

Percent inhibition refers to the dose given; in toxicity tests it is the harm to the cells.

compound | read-out | dose | strain or isolate | read by | value
CCc1nc2ccccc2n1CCCCOc1ccc(C)c(Cl)c1 | MIC90 |  | H37Rv-MA | turbidity / fluorescence | 1.6 µM
C[n+]1cccc(C(=O)NN)c1.[I-] | inhibition | 12.5 µg/mL | H37Rv | BACTEC | 0%
CO[C@H]1/C=C/O[C@@]2(C)Oc3c(C)c(O)c4c(=O)c(c5oc6cc(N7CCN(C(C)C)CC7)cc(=O)c6nc5c4c3=C2O)NC(=O)/C(C)=C\C=C\[C@H](C)[C@H](O)[C@@H](C)[C@@H](O)[C@@H](C)[C@H](OC(C)=O)[C@@H]1C | MIC |  | H37Rv |  | 0.017 µg/mL
Cc1ccc2nc(SCC(=O)N/N=C/c3ccc(Cl)c(Cl)c3)n(-c3ccccc3)c(=O)c2c1 | MIC |  | H37Rv |  | >6.25 µg/mL
Cc1cn2c(C(=O)NCc3ccc(N4CCC5(CC4)OC[C@@H](C)O5)c(F)c3)c(C)nc2s1 | MIC90 |  | H37Rv | resazurin | <2 µM
O=[N+]([O-])c1ccc(-n2nnc3ccccc32)nc1 | inhibition | 6.25 µg/mL | H37Rv | resazurin | 14%
Cc1ccn2c(C(=O)NCc3ccc(N4CCN(c5ccc(S(F)(F)(F)(F)F)cc5)CC4)cc3)c(C)nc2c1 | MIC90 |  | H37Rv | resazurin | <2 µM
O=S(=O)(Nc1ccc(Cl)c(C(F)(F)F)c1)c1ccc(F)cc1 | inhibition | 12.5 µg/mL | H37Rv | BACTEC | 0%
O=C(CN1CCCCC1)N/N=C\C(=O)c1ccccc1 | MIC |  |  |  | >50 µg/mL
CCCCCCCCCCCCCCCCNC(CCO)C1OC2OC(C)(C)OC2[C@@H]1OCc1ccccc1 | MIC |  | H37Ra |  | 12.5 µg/mL
CCc1nc2ccc(C)cc2n1CCCCOc1ccccc1 | MIC90 |  | H37Rv-MA cydC::aph | turbidity / fluorescence | 0.14 µM
Cc1ccn2c(C(=O)NCc3ccc(N4CCC5(CC4)OC[C@H](C)O5)c(F)c3)c(C)nc2c1 | MIC90 |  | H37Rv | resazurin | <2 µM
C[N+](C)(C)CC(=O)N/N=C/c1c(O)ccc2ccccc12.[Cl-] | MIC |  | H37Rv | BACTEC | ≥12.5 µg/mL
CO[C@@H]1C(C(CCO)NCCCCCCCC/C=C/CCCCCCCCN)OC2OC(C)(C)OC21 | MIC |  | H37Ra |  | 25 µg/mL
CCc1nc2ccc(Cl)cn2c1C(=O)NCc1ccc(NCCN2CCOCC2)c(F)c1 | MIC90 |  | H37Rv | resazurin | <2 µM
O=C(NCc1ccc(N2CCN(Cc3ccccc3)CC2)cc1)c1ccc([N+](=O)[O-])o1 | MIC |  | UT30 |  | 0.006 µg/mL
Cc1c2c(cc3c1C(=O)C(=O)C([C@@H](C)CO)=C3O)C(C)(C)CCC2 | MIC bound |  | H37Rv | resazurin | >6.25 µg/mL
Nc1nc(-c2ccsc2)c2ccn([C@@H]3O[C@H](CO)C(O)C3O)c2n1 | MIC |  | My 331/88 | MTT | >250 µM
CO[C@H]1/C=C/O[C@@]2(C)Oc3c(C)c(O)c4c(O)c(c(/C=N/N5CCN(C)CC5)c(O)c4c3C2=O)NC(=O)/C(C)=C\C=C\[C@H](C)[C@H](O)[C@@H](C)[C@@H](O)[C@@H](C)[C@H](OC(C)=O)[C@@H]1C | MIC |  | Harlingen (His526Tyr) |  | >32 µg/mL
OCNC(=S)c1cnccn1 | MIC |  | KK11-20 |  | 25 µg/mL
CO[C@H]1/C=C/O[C@@]2(C)Oc3c(C)c(O)c4c(=O)c(c5oc6cc(N7CCN(CC(C)C)CC7)cc(=O)c6nc5c4c3=C2O)NC(=O)/C(C)=C\C=C\[C@H](C)[C@H](O)[C@@H](C)[C@@H](O)[C@@H](C)[C@H](OC(C)=O)[C@@H]1C | MIC |  | H37Rv |  | 0.017 µg/mL
OC[C@H]1O[C@@H](n2ccc3c(-c4cc5ccccc5o4)nc(Cl)nc32)C(O)C1O | MIC |  | My 331/88 | MTT | 62.5 µM
C/C=C(/C)C(=O)O[C@@H]1C=C(C)CC[C@H]2[C@H](C)C(=O)O[C@@H]2/C=C(\C)C1 | MIC |  |  |  | >128 µg/mL
CN(Cc1cnc2nc(N)nc(N)c2n1)c1ccc(C(=O)N[C@@H](CCC(=O)O)C(=O)O)cc1 | MIC |  | H37Rv | turbidity | ≥200 µg/mL
Nc1nc(-c2cccs2)c2ccn([C@@H]3O[C@H](CO)C(O)C3O)c2n1 | MIC |  | My 331/88 | MTT | >250 µM
NC1[C@H]2CN(c3nc4c(cc3F)c(=O)c(C(=O)O)cn4-c3ccc(F)cc3F)C[C@@H]12 | MIC50 |  | 33 strains |  | 16 µg/mL
C=C1C(=O)O[C@@H]2/C=C(\C)CC[C@H]3OC3(C)CC[C@@H]12 | MIC |  |  |  | 64 µg/mL
CCCCCCCCOC(=O)c1cnccn1 | MIC |  | KK11-20 |  | 100 µg/mL
CCCCCCCC/C=C\CCCCCCCCOCC(O)CO | inhibition | 128 µg/mL | H37Rv | BACTEC | 99%
O=[N+]([O-])c1cn2c(n1)OC[C@@H](OCc1ccc(OC(F)(F)F)cc1)C2 | MIC |  | UT26 |  | 0.012 µg/mL
CCCC/C=C/C(=O)N[C@@H](Cc1cc(F)cc(F)c1)C(=O)N[C@H]1COC(=O)[C@@H]2C[C@@H](C)CN2C(=O)[C@H](C)NC(=O)[C@@H]2CCCCN2C(=O)[C@@H]2CCCN2C1=O | MIC |  | H37Rv | turbidity | >20 µg/mL
CCOc1cc(/C=N/NC(=O)CSc2nc3ccc(C)cc3c(=O)n2-c2ccccc2)ccc1O | MIC |  | H37Rv |  | >6.25 µg/mL
C=C(CO)[C@@H]1CC[C@@]2(C)[C@H](O)CC=C(C)[C@@H]2[C@H]1O | MIC |  |  |  | >128 µg/mL
CN[C@@H]1[C@H](O)[C@H](NC)[C@H]2O[C@@]3(O)C(=O)C[C@@H](C)O[C@H]3O[C@@H]2[C@H]1O | MIC |  | H37Rv | turbidity | 100–200 µg/mL
CCCCCC(=O)OCCN1CCN(CCCN2c3ccccc3Sc3ccc(C(F)(F)F)cc32)CC1.Cl.Cl | inhibition | 12.5 µg/mL | H37Rv | BACTEC | 86%
CC(C)N=c1cc2n(-c3ccc(Cl)cc3)c3ccccc3nc-2cc1Nc1ccc(Cl)cc1 | MIC90 |  | H37Rv-LP | turbidity / fluorescence | 0.21 µM
Cc1ccc2ccc3ccc(C)nc3c2n1 | inhibition | 12.5 µg/mL | H37Rv | BACTEC | 49%
Cc1nc(-c2cccs2)c2ccn([C@@H]3O[C@H](CO)C(O)C3O)c2n1 | MIC |  | My 331/88 | MTT | >250 µM
Cc1ccn2c(C(=O)NCc3ccc(N4CCC(Oc5ccc(C(F)(F)F)cc5)CC4)c(F)c3)c(C)nc2c1 | MIC90 |  | H37Rv | resazurin | <2 µM
CCCCCCCCCCCCNC(CCO)C1OC2OC(C)(C)OC2[C@H]1OC | MIC |  | H37Ra |  | 12.5 µg/mL
CC[C@H]1OC(=O)[C@H](C)[C@@H](O[C@H]2C[C@@](C)(OC)[C@@H](O)[C@H](C)O2)[C@H](C)[C@@H](O[C@@H]2O[C@H](C)C[C@H](N(C)C)[C@H]2O)[C@](C)(O)C[C@@H](C)C(=O)[C@H](C)[C@@H](O)[C@]1(C)O | MIC |  | H37Rv | turbidity | 200–800 µg/mL
C=C1CC[C@@H](O)[C@]2(C)CC[C@@H](C(C)CO)[C@H](O)[C@@H]12 | MIC |  |  |  | >128 µg/mL
CC1(C)OC2O[C@H](C(CCO)NC3CC3)C3OC(C)(C)OC3C2O1 | MIC |  | H37Ra |  | >100 µg/mL
OC[C@H]1O[C@@H](n2ccc3c(-c4ccoc4)nc(Cl)nc32)C(O)C1O | MIC |  | My 331/88 | MTT | >250 µM
Cc1cc2ccc[n+](C)c2c2ncccc12 | MIC bound |  | H37Rv | BACTEC | >12.5 µg/mL
Cc1ccc2nc(C)c(C(=O)NCc3ccc(N4CCC(c5ccc(OC(F)(F)F)cc5)CC4)cc3)n2c1 | MIC90 |  | H37Rv | resazurin | <2 µM
Nc1nc(N)nc(-c2ccc([N+](=O)[O-])o2)n1 | MIC |  | EMB-R |  | 6.3 µg/mL
C[C@]1(COc2ccc(N3CCC(Oc4ccc(OC(F)(F)F)cc4)CC3)cc2)Cn2cc([N+](=O)[O-])nc2O1 | MIC |  | HN878 |  | 0.4 µg/mL
CCC(C)N1CCN(c2cc(=O)c3nc4c(oc3c2)c2c(=O)c3c(O)c(C)c5c(c34)=C(O)[C@@](C)(O/C=C/[C@H](OC)[C@@H](C)[C@@H](OC(C)=O)[C@H](C)[C@H](O)[C@H](C)[C@@H](O)[C@@H](C)/C=C/C=C(/C)C(=O)N2)O5)CC1 | MIC90 |  | 20 strains |  | 0.07 µg/mL
Cc1cc(NS(=O)(=O)c2ccc(N)cc2)no1 | MIC |  | H37Rv | turbidity | 200 µg/mL
O=C(C[C@@H](O)CCc1ccc(O)c(O)c1)O[C@H]1Cc2c(O)cc(O)cc2O[C@@H]1c1ccc(O)c(O)c1 | inhibition | 12.5 µg/mL | H37Rv | BACTEC | 7%
C[C@@H]1CN(c2c(F)c(N)c3c(=O)c(C(=O)O)cn(C4CC4)c3c2F)C[C@H](C)N1 | MIC |  | H37Rv | broth dilution / visual reading | 0.2 µg/mL
CCc1nc2ccccc2n1CCCCOc1ccc2sc(C)nc2c1 | MIC90 |  | H37Rv-LP | turbidity / fluorescence | 1.7 µM
Cc1ccc2nc(SCC(=O)N/N=C/c3ccc(Cl)cc3)n(-c3ccccc3)c(=O)c2c1 | MIC |  | H37Rv |  | >6.25 µg/mL
C[C@H](c1ccccc1)N(CC(N)=O)C(=O)CN(C(=O)CNCCC[NH3+])[C@@H](C)c1ccccc1 | MIC |  | H37Ra | resazurin | 14.1 µM
CCc1nc2ccc(Cl)cn2c1C(=O)NCc1ccc(N2CCC3(CC2)OC[C@H](C)O3)c(F)c1 | MIC90 |  | H37Rv | resazurin | <2 µM
COc1ccc(CSC(=S)Nc2ccc(F)c(F)c2)cc1 | MIC bound |  | H37Rv | BACTEC | ≤128 µg/mL
O=C(CN1CCOCC1)N/N=C\C(=O)c1ccc(Sc2ccccc2)cc1 | MIC |  |  |  | >50 µg/mL
NC(N)=NOCC[C@H](N)C(=O)O | MIC |  | H37Rv | BACTEC | ≥128 µg/mL
O=C(CN1CCCCC1)N/N=C\C(=O)c1ccc(-c2ccccc2)cc1 | MIC |  |  |  | >50 µg/mL
CCC[C@@H]1C[C@@H](C(=O)N[C@@H]([C@H]2O[C@H](SC)[C@H](O)[C@@H](O)[C@H]2O)[C@H](C)Cl)N(C)C1 | MIC |  | H37Rv | turbidity | >200 µg/mL
COC(=O)c1cc(=O)n2c(nc3ccccc32)s1 | inhibition | 6.25 µg/mL | H37Rv | resazurin | -23%
Cc1ccc2nc(SCC(=O)N/N=C/c3ccc(F)cc3)n(-c3ccccc3)c(=O)c2c1 | MIC |  | H37Rv |  | >6.25 µg/mL
O=C(O)c1cc(=O)c2cccc(O)c2[nH]1 | inhibition | 12.5 µg/mL | H37Rv | BACTEC | 15%
CCc1nc2cc(C)ccn2c1C(=O)NCc1ccc2c(c1)CCO2 | MIC90 |  | H37Rv | resazurin | <2 µM
Cc1nn(C(=S)S)c(C)c1N=Nc1ccc(Br)cc1 | MIC bound |  | H37Rv | BACTEC | >12.5 µg/mL
Cc1cn2c(C(=O)NCc3ccc4c(c3)CCO4)c(C)nc2s1 | MIC90 |  | H37Rv | resazurin | 2–10 µM
Cc1cc(N(C)C)c2ccc3ccccc3c2n1 | inhibition | 6.25 µg/mL | H37Rv | resazurin | 3%
CCCCCCCCCCCCCCCCC1OC2OC(C)(C)OC2[C@@H]1OC | MIC |  | H37Ra |  | 12.5 µg/mL
C[n+]1c(-c2ccc(/C=N/NC(=O)N/N=C/c3ccc(-c4cn5ccccc5[n+]4C)cc3)cc2)cn2ccccc21.Cc1ccc(S(=O)(=O)[O-])cc1.Cc1ccc(S(=O)(=O)[O-])cc1 | MIC |  | H37Rv | BACTEC | 6.25 µg/mL
CC1=CCC[C@@]2(C)O[C@H]2[C@H]2OC(=O)[C@@H](C)[C@@H]2CC1 | MIC |  |  |  | 128 µg/mL
C[C@H]1[C@H](c2ccccc2)OC(c2ccccc2)N1C | MIC bound |  | H37Rv | BACTEC | >12.5 µg/mL
C1=C2CCCC/C=C\C=C\CCN3CC[C@@H]4[C@H](CCCCCC/C=C\C=C/CCN(C2)C[C@H]14)C3 | MIC |  | H37Rv (ETH-resistant) |  | 3.13 µg/mL
CCCCN(CCCC)CCNc1ccc(C)c2sc3cc(C)ccc3c(=O)c12 | MIC bound |  | H37Rv | BACTEC | ≤12.5 µg/mL
C[C@H]1COc2c(N3CCN(C)CC3)c(F)cc3c(=O)c(C(=O)O)cn1c23 | MIC |  | H37Rv | resazurin | 0.25 µg/mL

MIC bound: limit read from a one-dose screen. Blank or dashed fields: not listed here. A number after MIC or MFC names an inhibition level or a share of isolates. Neighbouring rows are from separate reports. Two numbers with a dash give a range or band.